A mixed list of measured activities; the numbers were collected in NIAID ChemDB.

All rows: tests in culture; agent: Mycobacterium tuberculosis

Blank or dashed fields: not listed here.

SMILES | dose | method | measure | strain or isolate | conditions | cell line | value
O=[N+]([O-])[O][Ga]([O][N+](=O)[O-])[O][N+](=O)[O-] | 500 µM | - | inhibition | Erdman | inside macrophages | - | 95%
O=C1CC(c2ccccc2)Oc2c(I)cccc21 | - | - | EC50 | - | - | - | >12.5 µg/mL
CCCCCCCCOc1ccc(NC(=O)OCC[NH+]2CCCC2)cc1 | - | - | MIC | My 331/88 | - | - | 16 µM
O=C1OC(c2ccccc2)=N/C1=C/c1cccc(F)c1 | 12.5 µg/mL | BACTEC | inhibition | H37Rv | - | - | 20%
CCCOc1ccc(NC(=O)OCCN2CCCCCC2)cc1 | - | - | MIC | My 331/88 | - | - | 125 µM
NCCn1[nH]c(=O)c2cccnc2c1=O | - | resazurin | MIC bound | H37Rv | - | - | >6.25 µg/mL
CC(C)Cn1c(-c2ccc(O)cc2)cs/c1=N\NC(=O)COc1cnccn1 | - | - | MIC | H37Rv | - | - | 7.1 µg/mL
Cc1nn(C(=O)Cc2ccccc2)c2c1C(c1ccccc1[N+](=O)[O-])SC(N)=N2 | - | resazurin | MIC bound | H37Rv | - | - | >6.25 µg/mL
O=C(Nc1ccc(Cl)cc1)c1cc(Cl)ccc1OP(=O)(Oc1ccccc1)c1ccccc1 | - | - | MIC | My 331/88 | 7 d | - | 4 µM
CCCCOc1ccc(NC(=O)OCCN(C)C)cc1 | - | - | MIC | My 331/88 | - | - | 125 µM
CC(C)Cn1c(-c2ccc(Cl)cc2)cs/c1=N\NC(=O)COc1cnccn1 | - | - | MIC | H37Rv | - | - | 19 µg/mL
COc1c(C(C)=O)cc(N)c2nc(C(C)(C)C)ccc12 | 6.25 µg/mL | - | inhibition | H37Rv | - | - | 0%
O=C(Nc1ccc(C(F)(F)F)cc1)c1cc(Br)ccc1OP(=O)(OCc1ccccc1)OCc1ccccc1 | - | - | MIC | My 331/88 | 7 d | - | 8 µM
CCCCOc1ccc(NC(=O)OCCN2CCOCC2)cc1 | - | - | MIC | My 331/88 | - | - | 250 µM
O=C(c1ccccc1)c1cc(Cl)ccc1NC(=O)C(Cl)(Cl)Cl | 6.25 µg/mL | resazurin | inhibition | H37Rv | - | - | 20%
O=C1NC(NNC(=O)c2ccncc2)=N/C1=C\c1ccccc1Cl | - | - | MIC | Ethambutol-resistant | - | - | ≤1.56 µg/mL
NCC[C@H](O)C(=O)N[C@@H]1C[C@H](N)[C@@H](O[C@H]2O[C@H](CN)[C@@H](O)[C@H](O)[C@H]2O)[C@H](O)[C@H]1O[C@H]1O[C@H](CO)[C@@H](O)[C@H](N)[C@H]1O | - | - | MIC | 90-0145 (drug-susceptible) | - | - | 0.5 µg/mL
COC1=C2CC(C)CC(OC)C(O)C(C)/C=C(\C)C(OC(N)=O)C(OC)/C=C\C=C(/C)C(=O)NC(=C(C=NC(C)(C)C)C1=O)C2=O | - | - | MIC | INH-r | - | - | 12.5 µg/mL
CC(C)NC(=S)NNC(=O)COc1cnccn1 | - | - | MIC | H37Rv | - | - | 63 µg/mL
O=C1c2cc(Cl)ccc2OP(=O)(c2ccccc2)N1c1ccc(C(F)(F)F)cc1 | - | - | MIC | 9449/2007 | 14 d | - | 1 µM
O=[N+]([O-])c1cccc2c(C3CCCC3)cc(C3CCCC3)nc12 | - | - | MIC | Rifampicin-resistant | - | - | 25 µg/mL
CCOC(=O)C1C2OC3C(OS(=O)(=O)C31)C2Br | - | BACTEC | MIC | H37Rv | - | - | ≥128 µg/mL
CO[C@H]1/C=C/O[C@@]2(C)Oc3c(C)c(O)c4c(O)c(c5c(c4c3C2=O)NC2(CCN(CC(C)C)CC2)N=5)=NC(=O)/C(C)=C\C=C\[C@H](C)[C@H](O)[C@@H](C)[C@@H](O)[C@@H](C)[C@H](OC(C)=O)[C@@H]1C | - | - | MIC | 14 (rifampicin-susceptible) | - | - | ≤0.062 µg/mL
CCCCOc1cccc(NC(=O)OCC[NH+]2CCCC2)c1 | - | - | MIC | My 331/88 | - | - | 125 µM
O=C(Nc1cccc2c(C3CCCCC3)cc(C3CCCCC3)nc12)C(F)(F)F | - | - | MIC | Rifampicin-resistant | - | - | 50 µg/mL
O=C1OC2C(O1)C1(Cl)C(Cl)=C(Cl)C2(Cl)C1(Cl)Cl | - | BACTEC | MIC bound | H37Rv | - | - | >6.25 µg/mL
O=[N+]([O-])c1ccccc1Sc1nnc(N2CCN(c3nc(N4CCN(c5ccccc5)CC4)c4ccccc4n3)CC2)o1 | - | BACTEC / fluorescence | MIC | H37Rv | - | - | >6.25 µg/mL
N#C/C(c1nc2ccccc2[nH]1)=c1\s/c(=C(\N)O)c(=N)n1-c1ccccc1 | 6.25 µg/mL | resazurin | inhibition | H37Rv | - | - | 21%
CCc1ccnc2c([N+](=O)[O-])cc(C(C)=O)c(OC(C)C)c12 | 6.25 µg/mL | - | inhibition | H37Rv | - | - | 97%
c1ccc(Sc2nnc(N3CCN(c4nc(N5CCN(c6ccccc6)CC5)c5ccccc5n4)CC3)o2)cc1 | - | BACTEC / fluorescence | MIC | H37Rv | - | - | >6.25 µg/mL
O=C(COc1cnccn1)N/N=C1\SCC(=O)N1c1ccc(Cl)cc1Cl | - | - | MIC | H37Rv | - | - | 154 µg/mL
O=C(CCC(=O)c1ccc2ccccc2c1)NC[C@H]1CN(c2ccc(-n3cncn3)c(F)c2)C(=O)O1 | - | - | MIC | 10 clinical isolates sensitive | - | - | 2–4 µg/mL
C[C@@H]1CN(c2c(F)c(N)c3c(=O)c(C(=O)O)cn(C4CC4)c3c2F)C[C@H](C)N1 | - | - | MIC | 90-0233 (INH SM-RS) | - | - | 0.1 µg/mL
CCn1c2ccccc2c2nnc(NCCCO)nc21 | - | resazurin | MIC bound | H37Rv | - | - | >6.25 µg/mL
O=C(NNc1cccc([N+](=O)[O-])c1)N1CCN(c2nc(N3CCN(c4ccccc4)CC3)c3ccccc3n2)CC1 | - | agar / visual reading | MIC | H37Rv | - | - | 50 µg/mL
O=C(Nc1ccc(C(F)(F)F)cc1)c1cc(Cl)ccc1OP(=O)(c1ccccc1)c1ccccc1 | - | - | MIC | 9449/2007 | 21 d | - | 1 µM
CCCCCCCCOc1c(C(C)=O)cc([N+](=O)[O-])c2nccc(CC)c12 | 6.25 µg/mL | - | inhibition | H37Rv | - | - | 2%
NC(=O)c1nnn(-c2ccccc2)c1N | - | BACTEC | MIC | H37Rv | - | - | ≥12.5 µg/mL
NC(=O)c1cnc(Cl)cn1 | - | - | MIC | BDDIS 20 | - | - | 32 µg/mL
O=C1CC(c2cccc(Br)c2)Oc2ccccc21 | - | - | EC50 | - | - | - | <12.5 µg/mL
O=C1NC(NNC(=O)c2ccncc2)=N/C1=C\c1c(Cl)cccc1Cl | - | resazurin | EC50 | H37Rv | - | - | >12.5 µg/mL
CO[C@H]1/C=C/O[C@@]2(C)Oc3c(C)c(O)c4c(O)c(c(/C=N/N5CCN(C6CCCC6)CC5)c(O)c4c3C2=O)NC(=O)/C(C)=C\C=C\[C@H](C)[C@H](O)[C@@H](C)[C@@H](O)[C@@H](C)[C@H](OC(C)=O)[C@@H]1C | - | - | MIC | L402 | - | - | 0.05 µg/mL
O=C(Nc1ccc(Br)cc1)c1cc(Cl)ccc1OP(=O)(c1ccccc1)c1ccccc1 | - | - | MIC | My 331/88 | 7 d | - | 4 µM
NCC[C@H](O)C(=O)N[C@@H]1C[C@H](N)[C@@H](O[C@H]2O[C@H](CN)[C@@H](O)[C@H](O)[C@H]2O)[C@H](O)[C@H]1O[C@H]1O[C@H](CO)[C@@H](O)[C@H](N)[C@H]1O | - | broth dilution / resazurin | MIC | MDR23 | - | - | 8 µg/mL
CCOC(=O)CN1C(=O)S/C(=C/c2ccc([N+](=O)[O-])o2)C1=O | - | BACTEC | MIC | H37Rv | - | - | ≥12.5 µg/mL
O=C1NC(Nc2cccc(Cl)c2)=N/C1=C\c1ccccc1Cl | 12.5 µg/mL | - | inhibition | H37Rv | - | - | 91%
CC1COc2c(N3CCN(C)CC3)c(F)cc3c(=O)c(C(=O)O)cn1c23 | - | - | MIC | 92-0492 MDR (INH RIF-resistant) | - | - | 1 µg/mL
CO[C@H]1/C=C/O[C@@]2(C)Oc3c(C)c(O)c4c(=O)c(c5oc6cc(N7CCN(CC(C)C)CC7)cc(=O)c6nc5c4c3=C2O)NC(=O)/C(C)=C\C=C\[C@H](C)[C@H](O)[C@@H](C)[C@@H](O)[C@@H](C)[C@H](OC(C)=O)[C@@H]1C | - | - | MIC | 15 (isoniazid-resistant) | - | - | 0.0039 µg/mL
O=[N+]([O-])c1ccccc1S(=O)(=O)N1CCN(S(=O)(=O)c2ccccc2[N+](=O)[O-])C1 | - | resazurin | MIC bound | H37Rv | - | - | >6.25 µg/mL
O=C1c2cc(Br)ccc2OP(=O)(c2ccccc2)N1c1ccc(C(F)(F)F)cc1 | - | - | MIC | My 331/88 | 14 d | - | 1 µM
CCCCCCOc1cccc(NC(=O)OCCN(C)C)c1 | - | - | MIC | My 331/88 | - | - | 32 µM
O=C1NC(NNC(=O)c2ccncc2)=N/C1=C\c1cccc(Cl)c1 | - | - | MIC | Ethambutol-resistant | - | - | ≤0.39 µg/mL
CC(C)N=c1cc2n(-c3ccc(Cl)cc3)c3ccccc3nc-2cc1Nc1ccc(Cl)cc1 | - | - | MIC | 90-0241 (drug-susceptible) | - | - | 0.4 µg/mL
COc1ccccc1NC(=O)CC(=O)N1N=C(C)C(N=Nc2ccc(I)cc2)C1=O | - | BACTEC | MIC | H37Rv | - | - | ≥12.8 µg/mL
COc1ccc(/C=C/C(=O)c2ccccc2F)cc1 | 12.5 µg/mL | - | inhibition | H37Rv | - | - | 82%
CCN(CC)C(=S)[S][Sn]([S]C(=S)N(CC)CC)([c]1ccccc1)[c]1ccccc1 | - | - | MIC | ETA-R | - | - | 1.6 µg/mL
O=C(NNc1ccccc1)N1CCN(c2nc(N3CCN(c4ccccc4)CC3)c3ccccc3n2)CC1 | 100 µg/mL | agar / visual reading | inhibition | H37Rv | - | - | 90%
CCOC(=O)C1=NN(c2ccccc2)C(C(=O)OC)[C@H]1C(=O)OC | 6.25 µg/mL | - | inhibition | H37Rv | - | - | -7%
O=C(Nc1ccc(Cl)cc1)c1cc(Cl)ccc1OP(=O)(Oc1ccccc1)Oc1ccccc1 | - | - | MIC | My 331/88 | 7 d | - | 4 µM
COc1cc2c(c3oc4c(c(=O)c13)CCCC4)CCC(C)(C)O2 | 12.5 µg/mL | BACTEC | inhibition | H37Rv | - | - | -8%
CO[C@H]1/C=C/O[C@@]2(C)Oc3c(C)c(O)c4c(O)c(c5c(c4c3C2=O)NC2(CCN(CC(C)C)CC2)N=5)=NC(=O)/C(C)=C\C=C\[C@H](C)[C@H](O)[C@@H](C)[C@@H](O)[C@@H](C)[C@H](OC(C)=O)[C@@H]1C | - | - | MIC | H37Rv-pHT (Tyr 526 mutation) | - | - | 16 µg/mL
C[C@]1(COc2ccc(N3CCC(Oc4ccc(OC(F)(F)F)cc4)CC3)cc2)Cn2cc([N+](=O)[O-])nc2O1 | - | - | MIC90 | 49 strains (SM-susceptible) | - | - | 0.012 µg/mL
NNC(=O)c1ccccn1 | - | BACTEC | MIC | H37Rv | - | - | 1.56 µg/mL
Cc1ccc(Sc2nnc(N3CCN(c4nc(N5CCN(c6ccccc6)CC5)c5ccccc5n4)CC3)o2)cc1 | 6.25 µg/mL | BACTEC / fluorescence | inhibition | H37Rv | - | - | 0%
O=C(CCC(=O)c1ccc(Cl)cc1)NC[C@H]1CN(c2ccc(N3CCOCC3)c(F)c2)C(=O)O1 | - | - | MIC | ATCC 27294 | - | - | 25 µg/mL
O=C(N/N=C/c1ccc(Cl)cc1)C(c1ccccc1)N1CCCCC1 | - | BACTEC | MIC | H37Rv | - | - | ≥12.5 µg/mL
O=C(/C=C/c1cccnc1)c1ccc(F)cc1 | - | - | EC50 | H37Rv | - | - | <12.5 µg/mL
CC(=O)c1cc(N)c2nc(C34CC5CC(CC(C5)C3)C4)ccc2c1 | - | - | MIC | H37Rv | - | - | >6.25 µg/mL
N[C@@H]1CONC1=O | - | - | MIC | H37Rv | - | - | 25 µg/mL
[N-]=[N+]=CC(=O)CC[C@H](NC(=O)OCc1ccccc1)C(=O)OCc1ccccc1 | - | resazurin | MIC | H37Rv | - | VERO | 0.78 µg/mL
CC[C@H]1OC(=O)[C@H](C)[C@@H](O[C@H]2C[C@@](C)(OC)[C@@H](O)[C@H](C)O2)[C@H](C)[C@@H](O[C@@H]2O[C@H](C)C[C@H](N(C)C)[C@H]2O)[C@](C)(OC)C[C@@H](C)C(=O)[C@H](C)[C@@H](O)[C@]1(C)O | - | - | MIC | 90-0201 (drug-susceptible) | - | - | 5 µg/mL
O=C1NC(NNC(=O)c2ccncc2)=N/C1=C\c1ccc(Cl)cc1 | - | - | MBC | Isoniazid-resistant | - | - | >100 µg/mL
CCCCCCCCOc1ccc(NC(=O)OCCN2CCCCC2)cc1 | - | - | MIC | My 331/88 | - | - | 8 µM
O=C(CCC(=O)c1ccc2ccccc2c1)NC[C@H]1CN(c2ccc(N3CCCC3)c(F)c2)C(=O)O1 | - | - | MIC | 10 clinical isolates resistant | - | - | >16 µg/mL
CCCCCOc1cccc(NC(=O)OCCN2CCCCCC2)c1 | - | - | MIC | My 331/88 | - | - | 16 µM
O=C1C(=O)c2ccccc2C(O)=C1C(C1=C(O)c2ccccc2C(=O)C1=O)c1ccc(Cl)c(Cl)c1 | 12.8 µg/mL | BACTEC | inhibition | H37Rv | - | - | 37%
CSc1ccc(C(=O)CCC(=O)NC[C@H]2CN(c3ccc(N4CCCC4)c(F)c3)C(=O)O2)cc1 | - | - | MIC | ATCC 27294 | - | - | >16 µg/mL

The last 4 rows once more:

O=C(CCC(=O)c1ccc2ccccc2c1)NC[C@H]1CN(c2ccc(N3CCCC3)c(F)c2)C(=O)O1 ; measure: MIC ; strain or isolate: 10 clinical isolates resistant ; value: >16 µg/mL
CCCCCOc1cccc(NC(=O)OCCN2CCCCCC2)c1 ; measure: MIC ; strain or isolate: My 331/88 ; value: 16 µM
O=C1C(=O)c2ccccc2C(O)=C1C(C1=C(O)c2ccccc2C(=O)C1=O)c1ccc(Cl)c(Cl)c1 ; dose: 12.8 µg/mL ; method: BACTEC ; measure: inhibition ; strain or isolate: H37Rv ; value: 37%
CSc1ccc(C(=O)CCC(=O)NC[C@H]2CN(c3ccc(N4CCCC4)c(F)c3)C(=O)O2)cc1 ; measure: MIC ; strain or isolate: ATCC 27294 ; value: >16 µg/mL

Two numbers with a dash give a range or band. ECn is the concentration giving n% inhibition of infection, replication or growth. MIC bound comes from a single tested concentration. Rows are shuffled and stem from different studies. Percent inhibition refers to the dose given; in toxicity tests it is the harm to the cells. A number after MIC or MFC names an inhibition level or a share of isolates.